{"source": "patent US7273847B2", "about": "“Peptides with antioxidant and antimicrobial properties” (priority 2000, dated 2007)", "assay": "Ca2+ dependent aggregation (light scattering) of E. coli phospholipid vesicles"}
{"substance": "SP-A: Native surfactant protein A isolated from the alveolar wash of silica-pretreated rats", "values": [{"measurement": "Ca2+ induced aggregation of E coli phospholipid vesicles", "setting": "added at 0 time", "value": "decreased aggregation"}, {"measurement": "Established aggregation of E coli phospholipid vesicles", "setting": "added at 8 minutes", "value": "reversed established aggregation"}]}
